# Experimental data from ChEMBL document CHEMBL3994664, “Comparison of the anion inhibition profiles of the β- and γ-carbonic anhydrases from the pathogenic bacterium Burkholderia pseudomallei” (2017).
# Assay: Inhibition of Burkholderia pseudomallei recombinant carbonic anhydrase gamma incubated for 15 mins prior to testing by stopped flow CO2 hydration method
row,SMILES,Ki [µM]
1,NS(N)(=O)=O,77
2,NS(=O)(=O)O,83
3,OB(O)c1ccccc1,74
4,O=[As](O)(O)c1ccccc1,49
